Measured values from several laboratories, pooled; numbers as filed in NIAID ChemDB.

Common to all: tests in culture; agent: HIV-1; cells: CEM; endpoint: EC50

ECn is the concentration giving n% inhibition of infection, replication or growth. An empty or dashed field is not shown. Rows are shuffled and stem from different studies.

compound	read by	strain	mutations	result
CC(C)c1c(Sc2ccccc2)n(COCc2ccccc2)c(=O)[nH]c1=O	syncytia	IIIB TIBO R82913-resistant (RT K103N)	RT-K103N	0.75 µM
Cc1cc(C)c(CS(=O)c2cccc[n+]2[O-])c(C)c1	syncytia	IIIB	-	2.4 µg/mL
C=CCO/N=C/c1cc(NC(=S)c2ccoc2C)ccc1Cl	syncytia	IIIB	-	0.011 µM
CC(C)=CCOc1cc(NC(=S)c2ccoc2C)ccc1Cl	syncytia	IIIB	RT-V106A	0.015 µM
Cc1ccsc1C(=S)Nc1ccc(Cl)c(C(=O)OC(C(C)C)C(C)C)c1	syncytia	-	RT-K103N	73 µM
CCOC(=O)N[C@@H](Cc1ccccc1)[C@H](O)CN(CC(C)C)S(=O)(=O)c1ccc(F)cc1	p24	IIIB	-	<1.001 µM
CC[C@H](C)OC(=S)Nc1ccc(Cl)c(C(=O)OC(C)C)c1	syncytia	IIIB	-	0.091 µM
CCOCn1c(Sc2ccccc2)c(C(C)C)c(=O)[nH]c1=O	syncytia	IIIB (TIBO 82150) (RT-L100I)	RT-L100I	0.11 µM
CCCCOC(=S)Nc1ccc(Cl)c(C(=O)OC(C)C)c1	syncytia	-	RT-V106A	18.19 µM
CCC1=C(C(=O)OCC2CCCCC2)C(c2ccc(C(=O)OC)cc2)NC(=O)N1	p24 / ELISA	-	-	≤1 µM
CC(C)OC(=S)Nc1ccc(Cl)c(OC(F)F)c1	syncytia	IIIB	-	2.62 µM
CC(=O)Nc1ccc(S(=O)(=O)N(CC(C)C)C[C@@H](O)[C@H](Cc2ccccc2)NC(=O)OC(C)(C)C)cc1	p24	IIIB	-	<10 µM
COc1ccc(NC(=S)C2=C(C)OCCS2)cc1OCC=C(Cl)Cl	syncytia	IIIB	-	0.27 µg/mL
COc1ccc(NC(=O)c2ccoc2C)cc1CC(=O)OC(C)C	syncytia	IIIB	-	1.2 µM
COc1ccc(S(=O)(=O)N(CC(C)C)C[C@@H](O)CCN(CCc2ccccc2)C(=O)O[C@H]2COC3OCCC32)cc1	p24	IIIB	-	<1 µM
CC(C)OC(=O)c1cc(NC(=S)OCC2CC2)ccc1Cl	syncytia	IIIB	-	0.2135 µM
CC1=C(C(=O)N(C)c2ccc(Cl)c(C(=O)OC(C)C)c2)SCCO1	syncytia	Nevirapine-resistant (RT V106A)	RT-V106A	>10 µg/mL
CCC(=O)C1=C(CC2CCC(OC)CC2)NC(=O)NC1c1ccc(O)c(Cl)c1	p24 / ELISA	-	-	>5 µM
Cc1ccccc1OC(=O)c1cc(NC(=S)OC(C)C)ccc1Cl	syncytia	-	RT-E138K	20.61 µM
COc1ccc(NC(=O)c2ccoc2C)cc1OCC=C(Cl)Cl	syncytia	TIBO R82913-resistant (RT K103N)	RT-K103N	10 µg/mL
CC(C)CN(C[C@@H](O)[C@H](Cc1ccccc1)NC(=O)OC1CCOC1)S(=O)(=O)c1ccc(Cl)cc1	p24	IIIB	-	<0.101 µM
CC(C)c1ccc(CS(=O)(=O)c2cccc[n+]2[O-])cc1	-	IIIB	-	<40 µg/mL
CC(C)OC(=O)Oc1cc(NC(=S)OC(C)C)ccc1Cl	syncytia	-	RT-E138K	3.014 µM
Cc1occc1C(=S)Nc1ccc(Cl)c(/C=N/OCC(=O)OC(C)(C)C)c1	syncytia	IIIB	-	20 µM
CC(C)OC(=O)c1cc(NC(=O)OCC2CC2)ccc1Cl	syncytia	-	RT-E138K	19.2 µM
C=C(Cl)COc1cc(NC(=S)c2ccsc2C)ccc1C#N	syncytia	Nevirapine-resistant isolate (RT V106A)	RT-V106A	0.2 µg/mL
C/C=C/CSc1cc(NC(=S)c2ccoc2C)ccc1Cl	syncytia	-	RT-V106A	0.075 µM
C/C=C\COc1cc(NC(=S)OC(C)C)ccc1OC	syncytia	-	RT-L100I	10.16 µM
CCc1c(Sc2cc(C)cc(C)c2)n(COCc2ccccc2)c(=O)[nH]c1=O	syncytia	IIIB (TIBO 82150) (RT-L100I)	RT-L100I	0.002 µM
CC(C)CN(C[C@@H](O)[C@H](Cc1ccccc1)NC(=O)OCc1cccnc1)S(=O)(=O)c1ccc(F)cc1	p24	IIIB	-	<0.101 µM
Cc1ccsc1C(=O)Nc1ccc(Cl)c(/C=N/OC(C)(C)C)c1	syncytia	-	RT-Y181C	8.4 µM
CC1=C(C(=O)Nc2ccc(Cl)c(C(=O)OC(C)C)c2)SCCO1	syncytia	-	RT-L100I	≥5.89 µM
Cc1occc1C(=S)Nc1ccc(Cl)c(/C=N/OC(C)(C)C)c1	syncytia	IIIB	RT-Y188L	>2 µM
CC(=O)OCCOC(=O)c1cc(NC(=S)OC(C)C)ccc1Cl	syncytia	-	RT-E138K	>27.79 µM
CCOCn1c(Sc2cc(C)cc(C)c2)c(CC)c(=O)[nH]c1=S	syncytia	IIIB	RT-Y181C	0.09 µM
CC(C)OC(=O)c1cc(NC(=S)c2ccsc2)ccc1Cl	syncytia	IIIB	-	1.3 µM
CC(=O)Nc1ccc(S(=O)(=O)N(CC(C)C)C[C@@H](O)[C@H](Cc2ccccc2)NC(=O)O[C@@H]2CCOC2)cc1	p24	IIIB	-	<1 µM
CCc1c(Sc2cc(C)cc(C)c2)n(COCCO)c(=S)[nH]c1=O	syncytia	IIIB TIBO R82913-resistant (RT K103N)	RT-K103N	0.33 µM
CCC1=C(C(=O)c2ccc(C(C)(C)C)cc2)C(c2cccc(O)c2)NC(=O)N1	p24 / ELISA	-	-	>5 µM
COc1ccccc1C(=S)Nc1ccc(Cl)c(C(=O)OC(C)C)c1	syncytia	IIIB	-	0.261 µM
CSc1ccc(NC(=S)OC(C)C)cc1C(=O)OC(C)C	syncytia	-	RT-Y181C	5.191 µM
CC(=O)N1CCc2cc(S(=O)(=O)N(CC3CCCC3)C[C@@H](O)[C@H](Cc3ccccc3)NC(=O)O[C@H]3CCOC3)ccc21	p24	IIIB	-	<0.101 µM
Cc1occc1C(=S)Nc1ccc(Cl)c(OC(=O)OC(C)C)c1	syncytia	IIIB	-	1.1 µM
CCOC(=O)COc1cc(NC(=S)OC(C)C)ccc1Cl	syncytia	-	RT-E138K	15.06 µM
COc1ccc(S(=O)(=O)N(CC(C)C)C[C@@H](O)CCN(CC2CCCC2)S(=O)(=O)c2cccc(N)c2)cc1	p24	IIIB	-	<0.1 µM
CCC(=O)Oc1ccc(NC(=O)C2=C(C)OCCS2)cc1C(=O)OC(C)C	syncytia	PYR-resistant (RT Y181C)	RT-Y181C	>10 µg/mL
Cc1occc1C(=S)Nc1ccc(Cl)c(/C=N/OC2CCCC2)c1	syncytia	IIIB	-	0.25 µM
CC1=C(C(=S)Nc2ccc(Cl)c(C=NOC(C)(C)C)c2)CCCO1	syncytia	-	RT-E138K	0.108 µM
O=C1NC(C2CC2)=C(C(=O)OCC2CCCCC2)C(c2cccc([N+](=O)[O-])c2)N1	p24 / ELISA	-	-	>5 µM
Cc1occc1C(=S)Nc1ccc(Cl)c(/C=N/OCc2ccccc2)c1	syncytia	-	RT-Y181C	2.3 µM
Cc1occc1C(=S)Nc1ccc(Cl)c(/C=N/OC(C)(C)C)c1	syncytia	IIIB	RT-Y181C	0.214 µM
CC(C)CN(C[C@@H](O)[C@H](Cc1ccccc1)NC(=O)O[C@@H]1CCOC1)S(=O)(=O)c1ccoc1	p24	IIIB	-	<0.101 µM
Cc1sccc1C(=S)Nc1ccc(Cl)c(C(=O)OC2CCCCC2)c1	syncytia	-	RT-V106A	0.06 µM
CC1=C(C(=O)Nc2ccc(F)c(C(=O)OC(C)C)c2)SCCO1	syncytia	Nevirapine-resistant (RT V106A)	RT-V106A	>10 µg/mL
CC(C)(C)OC(=O)N[C@@H](Cc1ccccc1)[C@H](O)CN(CC1CCCC1)S(=O)(=O)c1ccc(Cl)c(Cl)c1	p24	IIIB	-	<1.001 µM
Cc1sccc1C(=S)Nc1ccc(Cl)c(OCC=C(Cl)Cl)c1	syncytia	TSAO-m3T-resistant (RT E138K)	RT-E138K	0.075 µg/mL
CC(=O)Nc1cc(S(=O)(=O)N(CC(C)C)C[C@@H](O)[C@H](Cc2ccccc2)NC(=O)OC2CCOC2)ccc1F	p24	IIIB	-	<1 µM
CCC(C)OC(=O)c1cc(NC(=S)OC(C)C)ccc1Cl	syncytia	-	RT-Y181C	2.577 µM
Nc1cccc(S(=O)(=O)N(CC2CCCC2)C[C@@H](O)CN(CCc2ccccc2)C(=O)O[C@H]2CCOC2)c1	p24	IIIB	-	<0.1 µM
CCSCC1=C(C(=O)Nc2ccc(Cl)c(C(=O)OC(C)C)c2)SCCO1	syncytia	PYR-resistant (RT Y181C)	RT-Y181C	>10 µg/mL
NC(=O)C[C@H](NC(=O)c1ccc2ccccc2n1)C(=O)N[C@@H](Cc1ccccc1)[C@H](O)CN(Cc1ccccc1)S(=O)(=O)c1ccccc1	p24	IIIB	-	<10 µM
CC(C)=CCOc1cc(NC(=S)c2ccoc2C)ccc1Cl	syncytia	IIIB	RT-V106A	0.015 µM
CCC1=C(C(=O)OCC2CCCCC2)C(c2ccc(N(C)C)cc2)NC(=O)N1	p24 / ELISA	-	-	≤1 µM
Cc1sccc1C(=S)Nc1ccc(Cl)c(OCCC(C)C)c1	syncytia	-	RT-L100I	0.082 µM
COC(=O)c1cc(NC(=S)OC(C)C)ccc1Cl	syncytia	-	RT-V106A	≥34.75 µM
CCOCn1c(Cc2cc(C)cc(C)c2)c(CC)c(=O)[nH]c1=O	syncytia	IIIB	RT-Y188H	1 µM
Cc1ccc(C)c(CS(=O)(=O)c2cccc[n+]2[O-])c1	syncytia	IIIB	RT-K103N	11 µg/mL
O=C(NC(Cc1ccccc1)C(=O)C(=O)C(=O)N(CC1CCCC1)S(=O)(=O)c1ccccc1)OC1COCOC1	p24	IIIB	-	<1 µM
Cc1ccccc1C(=S)Nc1ccc(Cl)c(C(=O)OC(C)C)c1	syncytia	-	RT-V106A	16 µM
CC(C)OC(=S)Nc1ccc(Cl)c(C(=O)OCC2CC2)c1	syncytia	-	RT-V106A	8.236 µM
CC1=C(C(=O)Nc2ccc(Cl)c(C(=O)OC(C)C)c2)SCCO1	syncytia	Nevirapine-resistant (RT V106A)	RT-V106A	>20 µg/mL
CC(C)OC(=O)c1cc(NC(=S)c2ccccc2N)ccc1Cl	syncytia	-	RT-V106A	15 µM
COc1ccc(S(=O)(=O)N(CC(C)C)C(=O)C(=O)C(=O)[C@@H](Cc2ccccc2)NC(=O)OC2COCOC2)cc1	p24	IIIB	-	<1 µM
CC(C)OC(=S)Nc1ccc(Cl)c(C(=O)OCC(F)(F)F)c1	syncytia	-	RT-L100I	21.08 µM
CC(=O)Nc1cccc(S(=O)(=O)N(CC(C)C)C[C@@H](O)[C@H](Cc2ccccc2)NC(=O)[C@H](CC(N)=O)NC(=O)c2ccc3ccccc3n2)c1	p24	IIIB	-	<1 µM
CCc1c(Sc2ccccc2)n(COCc2ccccc2)c(=S)[nH]c1=O	syncytia	IIIB	RT-Y181I	0.78 µM
CC(C)(C)OC(=O)NC(Cc1ccccc1)C(=O)C(=O)C(=O)N(CC1CCCC1)S(=O)(=O)c1ccccc1	p24	IIIB	-	<1 µM
COCC1=C(C(=O)Nc2ccc(Cl)c(C(=O)OC(C)C)c2)SCCO1	syncytia	Nevirapine-resistant (RT V106A)	RT-V106A	10 µg/mL
CC(C)OC(=O)c1cc(NC(=S)SC(C)C)ccc1Cl	syncytia	-	RT-L100I	>30.13 µM
CC1=C(C(=O)Nc2ccc(Cl)c(C(=O)OCC3CCC3)c2)SCCO1	syncytia	Nevirapine-resistant (RT V106A)	RT-V106A	4 µg/mL
C/C=C/COc1cc(NC(=S)c2ccn(C)c2C)ccc1Cl	syncytia	-	RT-V106A	2.2 µM
C#CCOC(=O)c1cc(NC(=S)OC(C)C)ccc1Cl	syncytia	-	RT-V106A	≥32.07 µM
O=C(N[C@@H](Cc1ccccc1)[C@H](O)CN(CC1CCCC1)S(=O)(=O)c1ccc(Cl)cc1)OCc1cccnc1	p24	IIIB	-	<1 µM
Cc1ccsc1C(=O)Nc1ccc(Cl)c(C(=O)OC2CCCCC2)c1	syncytia	IIIB	-	0.494 µM
CCCC1=C(C(=O)OCC2CCCCC2)C(c2cccc(O)c2)NC(=O)N1	p24 / ELISA	-	-	≤1 µM
Cc1ccsc1C(=S)Nc1ccc(Cl)c(/C=N/OC(C)(C)C)c1	syncytia	-	RT-Y181C	0.54 µM
CSC(=Nc1ccc(Cl)c(C(=O)OC(C)C)c1)OC(C)C	syncytia	-	RT-L100I	>30.13 µM
CCC1=C(C(=O)OCC2CCCCC2)C(c2cc(O)ccc2F)NC(=O)N1	p24 / ELISA	-	-	≤1 µM

For reference, 5 entries again:

| compound | read by | strain | mutations | result |
|---|---|---|---|---|
| Cc1ccsc1C(=S)Nc1ccc(Cl)c(/C=N/OC(C)(C)C)c1 | syncytia | - | RT-Y181C | 0.54 µM |
| CCc1c(Sc2ccccc2)n(COCc2ccccc2)c(=S)[nH]c1=O | syncytia | IIIB | RT-Y181I | 0.78 µM |
| CC(C)OC(=O)c1cc(NC(=S)OCC2CC2)ccc1Cl | syncytia | IIIB | - | 0.2135 µM |
| Cc1sccc1C(=S)Nc1ccc(Cl)c(OCC=C(Cl)Cl)c1 | syncytia | TSAO-m3T-resistant (RT E138K) | RT-E138K | 0.075 µg/mL |
| CCC1=C(C(=O)OCC2CCCCC2)C(c2ccc(C(=O)OC)cc2)NC(=O)N1 | p24 / ELISA | - | - | ≤1 µM |